Target: 2019 novel coronavirus (2019-nCoV) spike protein receptor-binding domain (2019-nCoV)
Experiment: BLI

## CR3022
  Kd: 6.28 nM
  koff: 0.00116 s⁻¹
